Test results as given in PMC4791643, “Reconstruction of diaminopimelic acid biosynthesis allows characterisation of Mycobacterium tuberculosis N-succinyl-L,L-diaminopimelic acid desuccinylase” (Scientific Reports, 2016).

How the values were obtained:
[1] = tested on: N[C@@H](CCC[C@H](NC(=O)CCC(=O)O)C(=O)O)C(=O)O; assay: purified protein; conditions: pH 8.0; 37.0 °C
[2] = tested on: N[C@@H](CCC[C@H](NC(=O)CCCC(=O)O)C(=O)O)C(=O)O; assay: purified protein; conditions: pH 8.0; 37.0 °C

Substance: MtDapE (Mycobacterium tuberculosis H37Rv)
- Km [1]: 31.09 ± 3.71 µM
- Km [2]: 1024 ± 645 µM
